Reference: ChEMBL document CHEMBL4406897 (Bioorg Med Chem, 2019)

System: Plasmodium falciparum
Test: Potency index, ratio of Ki for 5-(3-chlorophenyl)-6-ethylpyrimidine-2,4-diamine to KI for compound for competitive inhibition of Plasmodium dihydrofolate reductase N51I/C59R/S108N/I164L quadruple mutant expressed in Escherichia coli BL21(DE3)pLysS

`Cl.Nc1nc(N)c(-c2cccc(Cl)c2)c(CCCOc2ccccc2)n1` gave a Ratio Ki of 3 to 30.
